System: VERO cell line
Assay: Cytotoxicity MTT assay
Assay type: cell-based
Conditions: selectivity index, VERO IC50 / Mtb H37Rv MIC
Description: VERO cells (2 × 10^4 cells) were seeded into 96-well plates and incubated for 12 h. Serial dilutions of the compounds were mixed with the cell suspension in the plates. Both treated cells and blank and solvent controls were incubated for 72 h, followed by incubation with MTT (0.5 mg/mL) for another 4 h. The microplates were measured at 570 nm using a multimode reader (Infinite M200, Tecan). The percentage of viable cells was calculated as the mean with respect to the controls set to 100%. Triplicate wells were analyzed for each concentration. IC50 was defined as the concentration that reduced the viable cells by 50% compared to the untreated control cells. It was considered significant when the SI was more than 10.

SMILES | SI (IC50/MIC)
O=C1CSC(c2c[n+]([O-])c3ccccc3[n+]2[O-])N1c1ccc(Cl)cc1 (stereo not drawn) [2e, 2-(3′-P-chlorophenyl-4′(5H)-thiazolidinone)-quinoxaline-1,4-di-N-oxide] | 37
Cc1ccc2c(c1)[n+]([O-])c(C1SCC(=O)N1c1ccc(F)cc1)c[n+]2[O-] (stereo not drawn) [2j, 7-CH3-2-(3′-P-fluorophenyl-4′(5H)-thiazolidinone)-quinoxaline-1,4-di-N-oxide] | 18.2
O=C1CSC(c2c[n+]([O-])c3ccccc3[n+]2[O-])N1c1ccc(F)cc1 (stereo not drawn) [2d, 2-(3′-P-fluorophenyl-4′(5H)-thiazolidinone)-quinoxaline-1,4-di-N-oxide] | 39.2
O=C1CSC(c2c[n+]([O-])c3ccc(Cl)cc3[n+]2[O-])N1c1ccc(Cl)cc1 (stereo not drawn) [2z, 7-Cl-2-(3′-P-chlorophenyl-4′(5H)-thiazolidinone)-quinoxaline-1,4-di-N-oxide] | 60.6
O=C1CSC(c2c[n+]([O-])c3ccc(F)cc3[n+]2[O-])N1c1ccc(Cl)cc1 (stereo not drawn) [2u, 7-F-2-(3′-P-chlorophenyl-4′(5H)-thiazolidinone)-quinoxaline-1,4-di-N-oxide] | 58.5
Cc1ccc2c(c1)[n+]([O-])c(C1SCC(=O)N1c1ccc(Cl)cc1)c[n+]2[O-] (stereo not drawn) [2k, 7-CH3-2-(3′-P-chlorophenyl-4′(5H)-thiazolidinone)-quinoxaline-1,4-di-N-oxide] | 32.7
Cc1ccc(N2C(=O)CSC2c2c[n+]([O-])c3ccc(Cl)cc3[n+]2[O-])cc1 (stereo not drawn) [2w, 7-Cl-2-(3′-P-methylphenyl-4′(5H)-thiazolidinone)-quinoxaline-1,4-di-N-oxide] | 20
O=C1CSC(c2c[n+]([O-])c3ccc(F)cc3[n+]2[O-])N1c1ccccc1 (stereo not drawn) [2q, 7-F-2-(3′-phenyl-4′(5H)-thiazolidinone)-quinoxaline-1,4-di-N-oxide] | 20.2
O=C1CSC(c2c[n+]([O-])c3ccc(F)cc3[n+]2[O-])N1c1ccc(F)cc1 (stereo not drawn) [2t, 7-F-2-(3′-P-fluorophenyl-4′(5H)-thiazolidinone)-quinoxaline-1,4-di-N-oxide] | 64.7
O=C1CSC(c2c[n+]([O-])c3ccc(Cl)cc3[n+]2[O-])N1c1ccc(F)cc1 (stereo not drawn) [2y, 7-Cl-2-(3′-P-fluorophenyl-4′(5H)-thiazolidinone)-quinoxaline-1,4-di-N-oxide] | 68.5
O=C1CSC(c2c[n+]([O-])c3ccccc3[n+]2[O-])N1c1ccccc1 (stereo not drawn) [2a, 2-(3′-phenyl-4′(5H)-thiazolidinone)-quinoxaline-1,4-di-N-oxide] | 23
O=C1CSC(c2c[n+]([O-])c3ccc(Cl)cc3[n+]2[O-])N1c1ccccc1 (stereo not drawn) [2v, 7-Cl-2-(3′-phenyl-4′(5H)-thiazolidinone)-quinoxaline-1,4-di-N-oxide] | 38
